Compound potency records, mixed from different reports. Data source: NIAID ChemDB in PubChem.

Common to all: whole-cell or culture tests; organism: Coxsackie virus; method: cytopathic effect; endpoint: EC50

ECn: concentration that inhibits the pathogen or its effect by n%. Lines come from different laboratories, so protocols vary.

C[C@H](COc1cc(N)nc(N)n1)OCP(=O)(O)O ; strain: TYPE B4 ; result: >180 µM
CC(C)[Si]1(C(C)C)OC[C@H]2O[C@@H](n3cnc4cc(Cl)c(Cl)cc43)[C@@H](O)[C@H]2O[Si](C(C)C)(C(C)C)O1 ; strain: TYPE B4 ; cell line: HeLa ; result: >400 µg/mL
Nc1nccc2c1ncn2[C@@H]1O[C@H](CO)[C@@H](O)[C@H]1O ; strain: TYPE B4 ; cell line: HeLa ; result: ≥40 µg/mL
CCOC(=O)C(CCSC[C@H]1O[C@@H](n2ccc3c(N)ncnc32)[C@H](O)[C@@H]1O)NC(=O)COC ; strain: TYPE B4 ; cell line: VERO ; result: 150 µg/mL
NC(=O)c1cn([C@H]2C[C@H](O)[C@@H](CO)O2)c2ncnc(N)c12 ; strain: TYPE B4 ; cell line: VERO ; result: 2 µg/mL
Nc1ncnc2c1c(Br)cn2[C@@H]1O[C@H](CO)[C@@H](O)[C@H]1O ; strain: TYPE B4 ; cell line: HeLa ; result: 0.2 µg/mL
OC[C@H]1O[C@H](n2cnc3cc(Cl)c(Cl)cc32)[C@@H](O)[C@H]1O ; strain: TYPE B4 ; cell line: HeLa ; result: >200 µg/mL
Nc1nccc2c1ncn2[C@@H]1C[C@H](CO)[C@@H](O)[C@H]1O ; strain: TYPE B4 ; cell line: HeLa ; result: >400 µg/mL
Nc1ncnc2c1ccn2[C@@H]1O[C@H](CO)[C@@H](O)[C@H]1O ; strain: TYPE B4 ; cell line: HeLa ; result: 0.07 µg/mL
OC(CCl)CN1CC[N+]2(CC1)CC[N+]1(CCN(CC(O)CCl)CC1)CC2 ; strain: B3 ; cell line: HeLa ; result: >70 µg/mL
Nc1nccc2c1ncn2[C@@H]1C[C@H](CO)[C@@H](O)[C@H]1O ; strain: TYPE B4 ; cell line: HeLa ; result: >400 µg/mL
Nc1ncnc2c1ncn2[C@@H]1C=C(CO)[C@@H](O)[C@H]1O ; strain: TYPE B4 ; cell line: VERO ; result: 0.04 µg/mL
NC(=O)c1cn([C@@H]2O[C@H](CO)[C@@H](O)[C@@H]2O)c2ncnc(N)c12 ; strain: TYPE B4 ; cell line: VERO ; result: 2 µg/mL
Nc1ncnc2c1ncn2[C@H]1[C@H](O)[C@H](O)[C@]2(CO)O[C@H]12 ; strain: TYPE B4 ; cell line: VERO ; result: 2 µg/mL
Nc1ncnc2c1ncn2CCOCP(=O)(O)O ; strain: TYPE B4 ; result: >185 µM
Cc1nc(N2CCC[N+]3(CC2)CC[N+]2(CCCN(c4nc(C)nc5c4no[n+]5[O-])CC2)CC3)c2c(no[n+]2[O-])n1 ; strain: B3 ; cell line: HeLa ; result: >70 µg/mL
NC(=O)c1c[se]c([C@@H]2O[C@H](CO)[C@@H](O)[C@H]2O)n1 ; strain: TYPE B1/HA201468 ; cell line: HeLa ; result: 10 µg/mL
Nc1ncnc2c1ncn2[C@@H]1C=C[C@@H](O)[C@H]1O ; strain: TYPE B4 ; cell line: VERO ; result: >200 µg/mL
NC(=O)c1ncn([C@@H]2O[C@H](CO)[C@@H](O)[C@H]2O)c1C#Cc1ccccc1 ; strain: TYPE B4 ; cell line: HeLa ; result: >200 µg/mL
Nc1nc(N)c2ncn(C[C@H]3CC[C@@H](CO)C3)c2n1 ; strain: TYPE B4 ; cell line: HeLa ; result: >200 µg/mL
Nc1ncnc2c1ncn2C[C@H](O)CO ; strain: TYPE B4 ; cell line: VERO ; result: 70 µg/mL
CSc1nc(Cl)c([N+](=O)[O-])c(N2CC[N+]3(CC2)CC[N+]2(CCN(c4nc(SC)nc(Cl)c4[N+](=O)[O-])CC2)CC3)n1 ; strain: B3 ; cell line: HeLa ; result: >70 µg/mL
Nc1nc(N)c2nnn(C[C@H]3CC[C@@H](CO)C3)c2n1 ; strain: TYPE B4 ; cell line: VERO ; result: >100 µg/mL
NC(=O)c1cn([C@@H]2O[C@H](CO)[C@@H](O)[C@H]2O)c2ncnc(N)c12 ; strain: TYPE B4 ; cell line: HeLa ; result: ≥0.4 µg/mL
NC(=O)c1ncn([C@@H]2O[C@H](CO)[C@@H](O)[C@H]2O)c1C#CCO ; strain: TYPE B4 ; cell line: HeLa ; result: 10 µg/mL
Nc1ncnc2c1c(Br)cn2[C@@H]1O[C@H](CO)[C@@H](O)[C@H]1O ; strain: TYPE B4 ; cell line: HeLa ; result: 0.2 µg/mL
Nc1nc2c(nnn2C[C@H]2CC[C@@H](CO)C2)c(=O)[nH]1 ; strain: TYPE B4 ; cell line: VERO ; result: >200 µg/mL
Cc1cn([C@H]2C[C@@H](CO)[C@H](O)C2)c(=O)[nH]c1=O ; strain: TYPE B4 ; cell line: VERO ; result: >400 µg/mL
Nc1ncnc2c1ccn2[C@@H]1O[C@H](CO)[C@H](O)[C@H]1O ; strain: TYPE B4 ; cell line: VERO ; result: ≥40 µg/mL
N#Cc1ccc(N2CC[N+]3(CC2)CC[N+]2(CCN(c4ccc(C#N)cc4[N+](=O)[O-])CC2)CC3)c([N+](=O)[O-])c1 ; strain: B3 ; cell line: HeLa ; result: >70 µg/mL
Cc1cn([C@@H]2C[C@H](CO)[C@H](O)C2)c(=O)[nH]c1=O ; strain: TYPE B4 ; cell line: VERO ; result: >200 µg/mL
OC[C@H]1O[C@@H](n2cnc3cc(Cl)c(Cl)cc32)[C@@H](O)[C@@H]1O ; strain: TYPE B4 ; cell line: HeLa ; result: >10 µg/mL
Cc1cn([C@@H]2CC[C@H](CO)C2)c(=O)[nH]c1=O ; strain: TYPE B4 ; cell line: HeLa ; result: >400 µg/mL
Nc1nccc2c1ncn2[C@@H]1C[C@H](CO)[C@@H](O)[C@H]1O ; strain: TYPE B4 ; cell line: VERO ; result: 300 µg/mL
O=c1[nH]cnc2c1ncn2[C@@H]1C=C(CO)[C@@H](O)[C@H]1O ; strain: TYPE B4 ; cell line: VERO ; result: 7 µg/mL
Nc1ncnc2c1ncn2C[C@@H](O)[C@H](O)C(=O)O ; strain: TYPE B4 ; cell line: HeLa ; result: >400 µg/mL
NC(=O)c1ccnc([C@@H]2O[C@H](CO)[C@@H](O)[C@H]2O)c1 ; strain: TYPE B4 ; cell line: VERO ; result: >400 µg/mL
Nc1ncnc2c1ncn2C[C@@H](CO)OCP(=O)(O)O ; strain: TYPE B4 ; result: >50 µM
O=[N+]([O-])c1c(Cl)ncnc1NN1CC[N+]2(CC1)CC[N+]1(CCN(Nc3ncnc(Cl)c3[N+](=O)[O-])CC1)CC2 ; strain: B3 ; cell line: HeLa ; result: >70 µg/mL
Nc1ncnc2c1ccn2[C@@H]1O[C@H](CO)[C@@H](O)[C@H]1O ; strain: TYPE B4 ; cell line: HeLa ; result: 0.2 µg/mL